Laboratory results taken from ChEMBL document CHEMBL1156829.
The list shows a part of the results, in another mix than the full data.

experiment: NOVARTIS: Inhibition Frequency Index (IFI) - the number of HTS assays where a compound showed > 50% inhibition/induction, expressed as a percentage of the number of assays in which the compound was tested.; type: functional

Compound | IFI
CCCN(CCC)[P+](CC)(N(CCC)CCC)N(CCC)CCC | 12.7%
CCCN(CCC)[P+](C)(N(CCC)CCC)N(CCC)CCC | 7.84%
CN(C)[P+](C)(N(C)C)N(C)C | 12.4%
